In ChEMBL document CHEMBL3758177, “Synthesis and biological evaluation of novel phosphoramidate derivatives of coumarin as chitin synthase inhibitors and antifungal agents” (Eur J Med Chem, 2016) one finds diameter of the inhibition zone (DIZ) data, which are given here for 1 compound.

The test has as its system Candida albicans. The experiment in a line: Antifungal activity against Candida albicans CMCC 76615 at 100 ug/ml.

Take `COc1ccc2nc(NP(=O)(Oc3ccc(Cl)cc3)n3cnc4c(Cl)ccnc43)sc2c1` (stereo unspecified): the diameter of the inhibition zone (DIZ) is 16.5 mm.
